Values are the deposited “Percent Effect”, in %.
How 0% and 100% were set is not recorded. Most values in the screen are low, and negative values occur.
Many other results are left out here, so strong results are more common than in the screen.

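Phenotypic screen: M. tuberculosis growth, glucose 7H9 medium, 3 days; the read-out is not stated. Concentration: 500 µM. The record gives no direction; compounds that gave an IC50 in retests scored well above the rest, so higher reads as more growth inhibition. About 18,000 compounds were tested under these conditions; 7.9% (about 1,400) showed 50% or more at least once.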

structure,effect
CCOCC(=O)NC(C)c1c(F)cccc1OC (configuration not stated),76.1%
CCC1(NC(=O)c2coc(S(=O)(=O)N(C)C)c2)CCC1,67.83%
c1cn(C2CNC2)nn1,-0.4867%
N#Cc1ccccc1OCC(=O)NC(=O)c1ccco1,0.3732%
CCc1oc(C(=O)NC(COC)C(N)=O)cc1C (configuration not stated),-7.847%
O=C(CC1=CCCCC1)N1CCOc2ccncc21,23.72%
Cc1cc(C)c(C#N)c(N2C[C@@H]3CCN(C)[C@@H]3C2)n1,-0.5764%
O=C(NCCOc1ncccc1Cl)c1cc(Cl)c[nH]1,80.13%
O=c1ccc(F)cn1Cc1ncn(-c2ccccc2)n1,-4.035%
CCS(=O)(=O)N(C)C(=O)CCc1c[nH]c2ccccc12,94.26%
NCCNCc1ccccn1,0.6646%
CNCc1cnc(C)cn1,7.914%
CC1(C)CNCCC(=O)C1,66.58%
COC(=O)N1CCN(c2ccccn2)CC1,49.39%
Cn1cc(Br)c(CC#N)n1,7.338%
CNC(=O)CN(C)C(=O)c1csc(Br)c1,0.9059%
CCCNC(=O)c1ccc2c(c1)CC(=O)N2C,12.65%
CC(C)[C@@H](CO)NCc1ccc(S(=O)(=O)N(C)C)cc1,4.774%
CCn1ccc(CN2CC[C@](C)(O)C(C)(C)C2)n1,3.901%
CCN(CC)c1ccc(CN)cc1F,-16.17%
OCC1(O)CCOCC1,2.099%
CN(CC(=O)N1CCNC1=O)CC1CCCCC1,-5.986%
O=C(COCC(=O)N1CCCCC1)Nc1ccccc1,13.11%
CCS(=O)(=O)N1CCC(C(=O)NCCCN(C)C)CC1,3.705%
CC(=O)NCCC(=O)N1c2ccccc2CC1C (configuration not stated),-6.434%
O=C(C1CC1)N1CCN(Cc2cccc(F)c2)CC1,65.91%
CN(C)C(CNC(=O)c1ccccn1)c1ccsc1 (configuration not stated),18.32%
Cc1ccc(C2CN(CCOC(=O)N(C)C)CCO2)o1 (configuration not stated),0.6513%
CS(=O)(=O)Nc1cccc(CNC(=O)C2CCC2)c1,15.6%
CCOC(=O)c1cccnc1NCc1cnn(C)c1C,64.5%
COCC1=Nc2ccccc2CN1,-2.079%
CC(C)(CNC(N)=O)N1CCc2ccccc2C1,17.53%
CC(C)NC(=O)CN1c2cc(Cl)ccc2CS1(=O)=O,4.31%
COCCNCC(=O)Nc1cccc(C(C)SC)c1 (configuration not stated),41.57%
COc1ccc(CN(C)S(C)(=O)=O)cc1C,40.29%
Cn1cc(Cl)cc1C(=O)Nc1nncs1,44.78%
CCC(=O)NCCCN1CCCCCC1,-36.33%
CCC(CC)C(CNC(=O)c1ccc(O)nc1)N(C)C (configuration not stated),10.56%
CC(C)Cn1ccnc1CNc1ncccc1F,63.13%
CCC(C)C(=O)NCCNc1ccc(C(F)(F)F)cn1 (configuration not stated),67.65%
CCCn1nc(C(=O)NCc2ccccn2)ccc1=O,0.9131%
CN(Cc1cnn(C)c1)C(=O)c1cc(Br)c[nH]1,52.47%
CNC(=O)CCc1cnn(-c2ccccc2)c1,24.57%
COc1ccc(CC(=O)N2CCOC(C)C2)cc1 (configuration not stated),-0.1157%
CCn1cc(NC(=O)NC2CCN(C3CC3)CC2)cn1,3.284%
NCc1ccc(Cl)cn1,63.47%
O=C(Nc1ccccc1)C1CCCN1 (configuration not stated),1.896%
NCc1cccnc1O,-16.08%
CNC(=O)c1cc(-c2ccccc2C)n[nH]1,66%
CC1(C(=O)NCCN2CCCCC2)CCCCC(=O)N1 (configuration not stated),13.72%
CCNC(=O)C1(CN)CCC1,5.166%
Cc1cnn(CCNCc2cccc3c2OCCO3)c1,21.97%
O=C(CCc1ccc(Br)cc1F)NC1CCS(=O)(=O)C1 (configuration not stated),-3.462%
NCC(=O)N1CCC(Cc2ccccc2)CC1,11.22%
COCCNC(C)(CO)C1CCCCC1 (configuration not stated),1.696%
CCc1nnc(NC(=O)c2ccc(S(=O)(=O)NC)o2)s1,6.682%
CS(=O)(=O)NC(c1ccc(F)cc1)c1cccnc1 (configuration not stated),50.7%
Cc1ccc(OCC(=O)NCC2CCCO2)nc1 (configuration not stated),-0.3679%

Data taken from ChEMBL document CHEMBL3988442, “University of Dundee, Small-Polar-MMV Screening Library” (2021).